PubChem BioAssay AID624099 – ICCB-Longwood – 2012

- Screen: 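Knock-downs relieving repression by E2 of an HPV18 LCR luciferase reporter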 (primary screen)
- Cell system: human C33A cervical carcinoma cells (HPV-negative) stably expressing BPV1 E2 and an HPV18 LCR luciferase reporter
- Reagents: siRNA pool against human genes, 40 nM
- Duration: 72 h
- Detection: 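Per-well luciferase luminescence, z-scored on each plate against the plate mean and SD with control wells left out, then averaged across three replicate plates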
- Direction: mean z-score and z-score: higher = stronger reporter signal, weaker E2 silencing
- Active means: 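Mean z ≥ 2 together with z ≥ 2 in two or more of the three replicates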
The whole screen tested about 21,000 reagents; shown is an unselected part. 497 of all reagents (2.4%) count as active. 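Higher z means weaker E2 silencing; only reporter increases were scored, and knock-downs that hurt cell survival may mask genuine repressor factors.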 A number with no mark means an inactive call. No sequences are given here.

Target gene | PubChem SID | mean z-score | z-score, replicate A | z-score, replicate B | z-score, replicate C
RMP24 | SID134320860 | 0.19 | 0.11 | 0.29 | 0.18
ZIM3 | SID134312236 | -1.46 | -1.22 | -1.36 | -1.79
EFCAB3 | SID134322363 | -0.12 | 0.4 | -0.38 | -0.37
DNAJB12 | SID134324266 | -1.51 | -1.64 | -1.5 | -1.38
TDRD6 | SID134326274 | -0.34 | -0.4 | -0.01 | -0.62
MEDAG | SID134320345 | 0.81 | 0.56 | 0.76 | 1.11
HTR1A | SID134311072 | 3.33 (active) | 3.02 | 3.8 | 3.17
RSAD2 | SID134319467 | -0.67 | -0.45 | -0.67 | -0.88
FLJ31958 (retired record) | SID134319494 | 1.07 | 1.07 | 1 | 1.15
PDCD2L | SID134318956 | 0.21 | 0.03 | 0.3 | 0.32
HCK | SID56478521 | 0.48 | 0.31 | 0.55 | 0.58
C5orf24 | SID134319555 | -1.5 | -1.58 | -1.36 | -1.56
NSG1 | SID134313669 | -0.44 | -0.91 | -0.65 | 0.25
CEBPA-DT | SID134318674 | -0.88 | -0.88 | -0.9 | -0.87
SCD5 | SID134313289 | 1.71 | 1.53 | 1.46 | 2.15
LOC390828 (retired record) | SID134328856 | -0.7 | -0.29 | -0.69 | -1.11
GJA10 | SID134319020 | 0.73 | 0.85 | 0.61 | 0.74
LIPT2-AS1 | SID134329278 | 0.79 | 0.86 | 0.61 | 0.9
MYO3B | SID56478898 | -0.05 | 0.19 | -0.31 | -0.02
ZNF106 | SID134318273 | -0.64 | -0.56 | -0.71 | -0.66
SOFU1 | SID134322365 | -0.32 | -0.03 | -0.12 | -0.8
DPAGT1 | SID134315605 | -0.24 | -0.15 | -0.51 | -0.08
RBP4 | SID134313169 | -0.98 | -0.78 | -1.12 | -1.05
SCGB1A1 | SID134320661 | -0.93 | -0.83 | -0.95 | -1.03
SLMAP | SID134323419 | 1.34 | 1.46 | 1.45 | 1.1
IFNAR1 | SID134323939 | -0.15 | -0.24 | -0.18 | -0.04
CEP164 | SID134324067 | -1.55 | -1.54 | -1.53 | -1.57
THAP10 | SID134325038 | 0.78 | 0.86 | 0.75 | 0.72
YRDC | SID134322022 | -0.71 | -0.88 | -0.78 | -0.47
DIO3 | SID134315603 | 1.55 | 1.03 | 1.91 | 1.71
RAB22A | SID134323019 | 0.04 | 0.21 | 0.13 | -0.22
OR7E156P | SID134328449 | 0.26 | 0.2 | 0.65 | -0.08
KRTCAP3 | SID134321668 | 0.02 | 0.1 | 0.15 | -0.2
LOC391807 (retired record) | SID134327604 | -0.99 | -1.26 | -0.68 | -1.02
IGKC | SID134329726 | -1.18 | -1.07 | -1.33 | -1.15
SERHL2 | SID134310670 | 1.02 | 0.91 | 0.91 | 1.25
GMPPA | SID134317881 | 0.53 | 0.51 | 0.58 | 0.51
ARSF | SID134314090 | 0.27 | 0.18 | 0.47 | 0.17
LOC339685 | SID134329119 | 0.31 | 0.33 | 0.27 | 0.34
ZNF684 | SID134320639 | 0.24 | 0.14 | 0.16 | 0.43
LYSET | SID134325247 | -1.72 | -1.49 | -1.8 | -1.86
AIPL1 | SID134314759 | -1.11 | -1.16 | -1.06 | -1.12
DNAJC12 | SID134318166 | 0.01 | 0.4 | -0.39 | 0.02
SIPA1L2 | SID134325195 | 0.03 | 0.23 | -0.09 | -0.06
RFXAP | SID134315463 | -0.71 | -0.75 | -0.8 | -0.57
WNT5B | SID134314477 | 1.66 | 1.59 | 1.74 | 1.65
FUBP1 | SID134315876 | -1.09 | -0.87 | -1.53 | -0.85
CPN2 | SID134325732 | -1.6 | -1.4 | -1.73 | -1.65
SLC52A2 | SID134315234 | 0.07 | 0.15 | -0.25 | 0.31
SFT2D1 | SID134320200 | 0.14 | 0.33 | 0.43 | -0.33
FLJ46552 (retired record) | SID134327640 | -0.95 | -1.24 | -1.03 | -0.58
TMEM100 | SID134324310 | -0.11 | -0.3 | -0.52 | 0.49
RAB29 | SID134315055 | 3.08 (active) | 2.83 | 3.14 | 3.28
SCAF8 | SID134324192 | -0.8 | -0.81 | -0.91 | -0.69
NPY | SID134321612 | -0.37 | -0.37 | -0.21 | -0.54
ZDHHC20 | SID134320737 | -0.99 | -0.98 | -1.23 | -0.78
GPRIN2 | SID134329703 | 1.64 | 1.32 | 1.71 | 1.91

A few values from the list:
Entry of SERHL2 [SID134310670] under “mean z-score”: 1.02
Under “z-score, replicate A”, SIPA1L2 [SID134325195] has 0.23
Value for FLJ31958 (retired record) [SID134319494] under “mean z-score”: 1.07
For “z-score, replicate B”, YRDC [SID134322022] reads -0.78
Result of ZNF106 [SID134318273] under “z-score, replicate B”: -0.71
Value of SFT2D1 [SID134320200] in “mean z-score”: 0.14
